Share of PSTVd loop 15 variants by leaf site

Values reported by Wu et al. 2024 (doi:10.1371/journal.ppat.1012142).

Region: loop 15 of PSTVd (intermediate strain), upper and lower strand joined, each 5' to 3', the first 7 letters being the upper strand, closing pairs included. Wild type: GGAAACCGCUACUAC. Varied positions (N): GGAAACCGNNNNNNC.

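A pool of all variants was put on leaves of three Nicotiana benthamiana plants. Samples came from the inoculated region at 5 days, the leaf margin at 10 and upper systemic leaves at 12.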

Numbers give reads per thousand; 0 = not seen among the reads, higher = more abundant.
Each value is the mean of three plants.
"Pool" is the share in the plasmid pool used as inoculum, on the same scale.
The inoculated region was read from the minus strand, the other sites from the plus strand.
IR is the inoculated region, LM the leaf margin, Sys the systemic leaves.
The authors trace changes outside the varied positions to PCR and sequencing errors or to mutation in the plant; presence does not show that a variant is infectious alone.

| sequence | pool | IR | LM | Sys |
|---|---|---|---|---|
| GGAAACCGAACGAUC | 0.320 | 0.0837 | 0 | 0 |
| GGAAACCGAAGAACC | 0.256 | 0.114 | 0.0134 | 0 |
| GGAAACCGAAUACCC | 0.160 | 0.0794 | 0.00539 | 0 |
| GGAAACCGAAUCUCC | 0.224 | 0.101 | 0.0141 | 0 |
| GGAAACCGACACGAC | 0.368 | 0.0937 | 0.00668 | 0 |
| GGAAACCGACCAUCC | 0.256 | 0.102 | 0.00742 | 0 |
| GGAAACCGACCGAGC | 0.272 | 0.111 | 0 | 0 |
| GGAAACCGACCGGCC | 0.224 | 0.111 | 0.00539 | 0 |
| GGAAACCGACGUGUC | 0.304 | 0.141 | 0 | 0 |
| GGAAACCGACUGGAC | 0.272 | 0.108 | 0 | 0.0107 |
| GGAAACCGAGAUUCC | 0.208 | 0.0805 | 0.0195 | 0 |
| GGAAACCGAGCCUCC | 0.256 | 0.0642 | 0.0128 | 0 |
| GGAAACCGAGCGUAC | 0.272 | 0.367 | 0.0980 | 0.0310 |
| GGAAACCGAGGCUGC | 0.256 | 0.238 | 0.00742 | 0.0107 |
| GGAAACCGAGGGCGC | 0.224 | 0.0777 | 0.0187 | 0.00537 |
| GGAAACCGAUAAUAC | 0.240 | 0.422 | 0.132 | 0.110 |
| GGAAACCGCAAGUUC | 0.304 | 0.361 | 0.0741 | 0.0509 |
| GGAAACCGCCCAAGC | 0.128 | 0.120 | 0.00668 | 0 |
| GGAAACCGCCGUGGC | 0.176 | 0.0966 | 0.0187 | 0 |
| GGAAACCGCCUAUGC | 0.224 | 0.0876 | 0.0215 | 0.00537 |
| GGAAACCGCGAAUUC | 0.192 | 0.427 | 0.129 | 0.129 |
| GGAAACCGCGAGGCC | 0.304 | 0.0695 | 0.0141 | 0.00537 |
| GGAAACCGCGCGGCC | 0.320 | 0.134 | 0.00742 | 0 |
| GGAAACCGCUGAGUC | 0.224 | 0.0611 | 0.00539 | 0 |
| GGAAACCGCUGUGUC | 0.336 | 0.0730 | 0.00668 | 0 |
| GGAAACCGCUUCCUC | 0.112 | 0.140 | 0.0187 | 0 |
| GGAAACCGGAAAUGC | 0.288 | 0.0471 | 0 | 0 |
| GGAAACCGGAAUUGC | 0.240 | 0.0807 | 0.00539 | 0 |
| GGAAACCGGACGGCC | 0.128 | 0.0578 | 0.0275 | 0 |
| GGAAACCGGACGUUC | 0.208 | 0.322 | 0.107 | 0.0268 |
| GGAAACCGGAGGCCC | 0.208 | 0.122 | 0.0121 | 0 |
| GGAAACCGGCACAGC | 0.192 | 0.0596 | 0.00668 | 0 |
| GGAAACCGGCCCCUC | 0.400 | 0.119 | 0.00668 | 0.00537 |
| GGAAACCGGGUUCGC | 0.256 | 0.0929 | 0.0200 | 0 |
| GGAAACCGGUCUGUC | 0.144 | 0.0931 | 0.0121 | 0 |
| GGAAACCGGUGUAGC | 0.272 | 0.0502 | 0.00668 | 0 |
| GGAAACCGGUUAACC | 0.320 | 0.131 | 0.00668 | 0 |
| GGAAACCGUACAUCC | 0.240 | 0.0794 | 0.00668 | 0 |
| GGAAACCGUACGUUC | 0.128 | 0.289 | 0.111 | 0.0767 |
| GGAAACCGUCAAAUC | 0.256 | 0.106 | 0.0108 | 0.00537 |
| GGAAACCGUCGCGGC | 0.240 | 0.0827 | 0.0187 | 0 |
| GGAAACCGUCUAGAC | 0.176 | 0.109 | 0.00742 | 0 |
| GGAAACCGUGCAAGC | 0.160 | 0.0815 | 0.00539 | 0 |
| GGAAACCGUGUAGAC | 0.208 | 0.126 | 0 | 0 |
| GGAAACCGUGUUUGC | 0.208 | 0.0895 | 0.0121 | 0 |
| GGAAACCGUUACCGC | 0.208 | 0.261 | 0.113 | 0.0161 |
| GGAAACCGUUAGUUC | 0.240 | 0.313 | 0.124 | 0.0107 |
| GGAAACCGUUGAGAC | 0.192 | 0.0893 | 0.0182 | 0 |
| GGAAACCGUUUGGGC | 0.160 | 0.0812 | 0.00539 | 0 |

Samples held 43,870 to 66,106 reads, so the smallest values rest on one or two reads.
For reference, wild type rose from 33.9 per thousand in the pool to 202, 200, 159 (inoculated region), 724, 746, 710 (leaf margin) and 856, 883, 880 (systemic leaves).